Assay [1] deals with T1, Adenosine deaminase (Bos taurus) (UniProt P56658).
T1 sequence (whole entry): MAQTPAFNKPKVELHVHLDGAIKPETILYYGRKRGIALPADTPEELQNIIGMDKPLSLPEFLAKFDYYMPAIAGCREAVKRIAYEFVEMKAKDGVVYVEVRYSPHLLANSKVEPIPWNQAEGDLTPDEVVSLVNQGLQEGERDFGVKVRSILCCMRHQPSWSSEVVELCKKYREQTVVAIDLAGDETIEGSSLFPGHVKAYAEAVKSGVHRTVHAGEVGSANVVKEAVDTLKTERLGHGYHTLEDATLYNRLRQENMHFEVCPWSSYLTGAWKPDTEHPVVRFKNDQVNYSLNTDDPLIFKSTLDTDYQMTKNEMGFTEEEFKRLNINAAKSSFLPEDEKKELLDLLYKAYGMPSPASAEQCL
The assay is described as follows: Kcat/KM of compound against adenosine deaminase (ADA) was determined. The method, boiled down: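 Deamination by calf intestinal mucosa adenosine deaminase (0.15 units, MW 33 000, in 2 mL) in phosphate buffer pH 7.4 at 25 °C, substrate 15–100 μM, monitored by UV at 265 nm. Initial rates from graphical fitting of concentration vs time; Vmax and KM from Lineweaver–Burk plot, kcat calculated from enzyme amount.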

For assay [2], the target named is T1, Adenosine deaminase (Bos taurus). The assay is described as follows: Kcat value against adenosine deaminase (ADA).

`Nc1ncnc2c1ncn2[C@H]1C=C(F)[C@@H](CO)O1` showed a k cat/Km in assay [1] of 3.6e+06 M⁻¹ s⁻¹. In assay [2], this compound yielded a k cat of 31.8 s⁻¹.

Source of the values: ChEMBL document CHEMBL1148339, “Synthesis, structure-activity relationships, and drug resistance of beta-d-3'-fluoro-2',3'-unsaturated nucleosides as anti-HIV Agents” (J Med Chem, 2004).
